Positions that govern dimerization of the HIV-1 5' RNA

Sequence of the HIV-1 NL4-3 5' RNA, positions 1 to 437, as numbered in the source:
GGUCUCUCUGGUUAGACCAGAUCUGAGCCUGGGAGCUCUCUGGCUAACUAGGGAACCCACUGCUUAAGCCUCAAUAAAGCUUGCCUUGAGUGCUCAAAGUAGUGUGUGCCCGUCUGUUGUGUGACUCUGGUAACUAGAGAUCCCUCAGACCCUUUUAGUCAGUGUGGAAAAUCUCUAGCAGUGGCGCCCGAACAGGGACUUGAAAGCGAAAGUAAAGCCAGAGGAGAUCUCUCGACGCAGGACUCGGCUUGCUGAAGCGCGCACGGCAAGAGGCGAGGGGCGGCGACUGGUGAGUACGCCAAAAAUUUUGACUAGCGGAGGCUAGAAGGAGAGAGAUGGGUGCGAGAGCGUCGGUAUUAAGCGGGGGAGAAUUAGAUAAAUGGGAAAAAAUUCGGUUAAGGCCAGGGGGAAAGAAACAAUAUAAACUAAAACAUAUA

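Mutant RNA libraries with 1G, 2G or 3G starts, with or without cap, were folded at 37 °C for 30 min. Monomer and dimer bands were cut from native gels after folding in high salt (300 mM KCl, 5 mM MgCl2) or low salt (40 mM KCl, 0.1 mM MgCl2). Kdimer compares mutation frequencies in monomer and dimer, corrected for sequencing errors.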

Scale: median log2 Kdimer over the changes at a position; positive = changes inhibit dimerization, negative = changes enhance it. Sample: 2G capped low-salt. One numbering serves 1G, 2G and 3G. A position is written with its base.

With C231 (domain CU) the assay gave 0.31.
With U232 (domain CU) the assay gave 0.95.
With C233 (domain CU) the assay gave 0.48.
With G234 the assay gave -0.05.
With A235 the assay gave -1.31.
With C236 the assay gave 1.52.
With G237 the assay gave 0.70.
With C238 the assay gave 1.72.
With A239 the assay gave -0.31.
With G240 the assay gave -0.10.
With G241 the assay gave -0.18.
With A242 the assay gave 1.65.
With C243 (domain SL1) the assay gave 1.12.
With U244 (domain SL1) the assay gave 1.42.
With C245 (domain SL1) the assay gave 1.63.
With G246 (domain SL1) the assay gave 1.90.
With G247 (domain SL1) the assay gave -1.10.
With C248 (domain SL1) the assay gave 0.53.
With U249 (domain SL1) the assay gave 1.77.
With U250 (domain SL1) the assay gave 2.73.
With G251 (domain SL1) the assay gave 2.80.
With C252 (domain SL1) the assay gave 3.02.
With U253 (domain SL1) the assay gave 2.13.
With G254 (domain SL1) the assay gave 2.27.
With A255 (domain SL1) the assay gave -0.32.
With A256 (domain SL1) the assay gave 2.05.
With G257 (domain SL1) the assay gave 3.25.
With C258 (domain SL1) the assay gave 3.18.
With G259 (domain SL1) the assay gave 3.18.
With C260 (domain SL1) the assay gave 3.05.
With G261 (domain SL1) the assay gave 3.00.
With C262 (domain SL1) the assay gave 3.06.
With A263 (domain SL1) the assay gave 1.09.
With C264 (domain SL1) the assay gave 2.59.
With G265 (domain SL1) the assay gave 2.86.
With G266 (domain SL1) the assay gave 3.22.
With C267 (domain SL1) the assay gave 2.73.
With A268 (domain SL1) the assay gave 2.63.
With A269 (domain SL1) the assay gave 1.62.
With G270 (domain SL1) the assay gave 0.78.
With A271 (domain SL1) the assay gave -0.13.
With G272 (domain SL1) the assay gave -0.37.
With G273 (domain SL1) the assay gave -0.33.
With C274 (domain SL1) the assay gave 0.85.
With G275 (domain SL1) the assay gave 1.74.
With A276 (domain SL1) the assay gave 2.67.
With G277 (domain SL1) the assay gave 1.98.
With G278 the assay gave 0.42.
With G279 the assay gave 0.03.
With G280 the assay gave -0.59.
With C281 the assay gave 0.25.
With G282 the assay gave 1.03.
With G283 (domain SL2) the assay gave -0.18.
With C284 (domain SL2) the assay gave 0.40.
With G285 (domain SL2) the assay gave 0.95.
With A286 (domain SL2) the assay gave -0.12.
With C287 (domain SL2) the assay gave -0.68.
With U288 (domain SL2) the assay gave -0.11.
With G289 (domain SL2) the assay gave 0.09.
With G290 (domain SL2) the assay gave 0.18.
With U291 (domain SL2) the assay gave -0.32.
With G292 (domain SL2) the assay gave -0.23.
With A293 (domain SL2) the assay gave -0.35.
With G294 (domain SL2) the assay gave -0.80.
With U295 (domain SL2) the assay gave -0.70.
With A296 (domain SL2) the assay gave 0.16.
With C297 (domain SL2) the assay gave -0.03.
With G298 (domain SL2) the assay gave -0.59.
With C299 (domain SL2) the assay gave -0.44.

The last 5 entries again:

U295 (domain SL2) gave -0.70.
A296 (domain SL2) gave 0.16.
C297 (domain SL2) gave -0.03.
G298 (domain SL2) gave -0.59.
C299 (domain SL2) gave -0.44.

Source: Ye et al. 2022 (doi:10.1038/s41594-022-00746-2), supplementary data.